How the values were obtained:
calf thymus DNA = assay: Spectroscopic properties (absorption, emission, lifetime) on binding to calf thymus DNA; set-up: key to Emission λmax: b: Nonemissive complexes; settings: for Absorption λmax bound / Emission λmax bound: bound to DNA; for Absorption Δλ / Emission Δλ: bound vs free; for Absorption λmax free / Emission λmax free / εfree / Emission Lifetime free: free complex; for Emission Lifetime free / Emission Lifetime bound, first component (1) / Emission Lifetime bound, second component (2): 20° C., air saturated; for Emission Lifetime bound, first component (1) / Emission Lifetime bound, second component (2): with DNA
Procedure: Instrumentation: NMR spectra were recorded on a Varian VXR-300MHz spectormeter. FABS were performed using a VG Analytical 7070EQ Mas Spectrometer (78), and elemental analyses were done by Galbraith Laboratories in Nashville, Tenn. UV-Visible absorbance spectal were recorded on a Varian CARY-219 absorbance spectorphotometer. Extinction coefficients for the compounds were determined versus ruthenium concentrations obtained by atomic absorption spectroscopy with known ruthenium standards. [Ru(bpy)3 ]Cl2 solutions were also employed for these determinations as an internal standard. A varian AA-875 atomic absorption spectrophotometer was used for these determinations.
Emission spectra were measured on a Perkin-Elmer LS-5 fluorescence spectrometer. The samples were excited at their corresponding isosbestic points. All the measurements were made at 20° C. in a thermostatted cuvette holder with 3 nm entrance slit and 10 nm exit slit. Ruthenium solutions employed were 7 μM in concentration and claf thymus DNA was added to a ration of 40:1 nucleotide/metal; ruthenuim-DNA soltuions were allowed to incubate for 15 minutes before enhanced spectra were recorded. The emission enhancement factors were measured by comparing the intensitites at the emission spectral mixima in the absence ad presence of DNA, under similar conditions.
The limunescence lifetime measurements were done on a PRA SPC (single photon countining) spectometer with some minor modifications. The samples were excited with a nitrogen filled tnynratron gated flash lamp and the data were collected using a Tracor Northern 1710 multichannel analyser. The data were then transferred to a PDP-11/03 computer and deconvoluted with PRA software. […] concentrated solution of DNA (5mM DNA-phosphate) in buffer was added to a solution of the metal complex (4 μM) in buffer and allowed to equilibrate. Lifetimes of the samples were measured 0.5 hr after the metal complexes were mixed with DNA. All measurements were made at 20° C. and under air saturated conditions.
Furthermore, for all the complexes, this electronic transition is perturbed on binding to DNA.

[1] = Emission and excited-state lifetime (flash photolysis); type: physicochemical

Question: With O=[N+]([O-])c1cc2cccnc2c2ncccc12.O=[N+]([O-])c1cc2cccnc2c2ncccc12.O=[N+]([O-])c1cc2cccnc2c2ncccc12.[Ru+2] [Ru(5-NO2phen)3^2+, [Ru(5-nitrophenanthroline)3)]Cl2] as the compound, how does the “Emission λmax” value (calf thymus DNA) read?
Answer: b

Question: What about the “Absorption λmax bound” value (calf thymus DNA) of the same compound?
Answer: 454 nm

Question: And the “Absorption Δλ” value (calf thymus DNA)?
Answer: 4 nm

Question: What about the “Absorption λmax free” value (calf thymus DNA) of the same compound?
Answer: 450 nm

Question: What does the source list for [Ru+2].c1ccc(-c2ccnc3c2ccc2c(-c4ccccc4)ccnc23)cc1.c1ccc(-c2ccnc3c2ccc2c(-c4ccccc4)ccnc23)cc1.c1cnc2c(c1)ccc1cccnc12 [Ru(DIP)2 (phen)^2+]?
Answer: Absorption λmax bound (calf thymus DNA): 439 nm; Emission λmax bound (calf thymus DNA): 621 nm; Absorption Δλ (calf thymus DNA): 6 nm; Emission Δλ (calf thymus DNA): +5 nm; Absorption λmax free (calf thymus DNA): 433 nm; Emission λmax free (calf thymus DNA): 616 nm; εfree (calf thymus DNA): 29,400 M-1 cm-1; Emission Lifetime free (calf thymus DNA): 990 nanoseconds; Emission Lifetime bound, first component (1) (calf thymus DNA): 116 ± 40 nanoseconds; Emission Lifetime bound, second component (2) (calf thymus DNA): 5100 ± 430 nanoseconds

Question: For [Ru+2].c1ccc(-c2ccccn2)nc1.c1ccc(-c2ccccn2)nc1.c1ccc(-c2ccnc3c2ccc2c(-c4ccccc4)ccnc23)cc1 [Ru(bpy)2 (DIP)^2+], which “Absorption λmax bound” value (calf thymus DNA) is on record?
Answer: 454 nm

Question: And the “Emission λmax bound” value (calf thymus DNA)?
Answer: 621 nm

Question: And the “Absorption Δλ” value (calf thymus DNA)?
Answer: 0 nm

Question: What about the “Emission Δλ” value (calf thymus DNA) of the same compound?
Answer: 6 nm

Question: And the “Absorption λmax free” value (calf thymus DNA)?
Answer: 454 nm

Question: What about the “Emission λmax free” value (calf thymus DNA) of the same compound?
Answer: 615 nm

Question: And the εfree (calf thymus DNA)?
Answer: 18,600 M-1 cm-1

Question: What about the “Emission Lifetime free” value (calf thymus DNA) of the same compound?
Answer: 700 nanoseconds

Question: What about the “Emission Lifetime bound, first component (1)” value (“Emission Lifetime bound … (1)” below) (calf thymus DNA) of the same compound?
Answer: 640 ± 40 nanoseconds

Question: What about the “Emission Lifetime bound, second component (2)” value (shortened to “Emission Lifetime bound … (2)”) (calf thymus DNA) of the same compound?
Answer: 4700 ± 600 nanoseconds

Question: For [Ru+2].c1ccc(-c2ccnc3c2ccc2c(-c4ccccc4)ccnc23)cc1.c1cnc2c(c1)ccc1cccnc12.c1cnc2c(c1)ccc1cccnc12 [Ru(phen)2 (DIP)^2+], which “Absorption λmax bound” value (calf thymus DNA) is on record?
Answer: 432 nm

Question: What about the “Emission λmax bound” value (calf thymus DNA) of the same compound?
Answer: 606 nm

Question: What about the “Absorption Δλ” value (calf thymus DNA) of the same compound?
Answer: 5 nm

Question: And the “Emission Δλ” value (calf thymus DNA)?
Answer: -8 nm

Question: And the “Absorption λmax free” value (calf thymus DNA)?
Answer: 427 nm

Question: And the “Emission λmax free” value (calf thymus DNA)?
Answer: 614 nm

Question: What about the εfree (calf thymus DNA) of the same compound?
Answer: 20,550 M-1 cm-1

Question: And the “Emission Lifetime free” value (calf thymus DNA)?
Answer: 970 nanoseconds

Question: And the “Emission Lifetime bound … (1)” value (calf thymus DNA)?
Answer: 1160 ± 30 nanoseconds

Question: And the “Emission Lifetime bound … (2)” value (calf thymus DNA)?
Answer: 5290 ± 80 nanoseconds

Question: With O=C1c2cccnc2-c2ncccc21.[Ru+2].c1cnc2c(c1)ccc1cccnc12.c1cnc2c(c1)ccc1cccnc12 [Ru(phen)2 (flone)^2+, [Ru(phen)2 (4,5-diazafuorene-9-one)]Cl2] as the compound, how does the “Emission λmax” value (calf thymus DNA) read?
Answer: b

Question: And the “Absorption λmax bound” value (calf thymus DNA)?
Answer: 436 nm

Question: And the “Absorption Δλ” value (calf thymus DNA)?
Answer: 0 nm

Question: And the “Absorption λmax free” value (calf thymus DNA)?
Answer: 436 nm

Question: What about the εfree (calf thymus DNA) of the same compound?
Answer: 18,800 M-1 cm-1

Question: What does the source list for N=C1C(=N)c2ccccc2-c2ccccc21.[Ru+2].c1cnc2c(c1)ccc1cccnc12.c1cnc2c(c1)ccc1cccnc12 [Ru(phen)2 (phi)^2+]?
Answer: Emission λmax (calf thymus DNA): b; Absorption λmax bound (calf thymus DNA): 544 nm; Absorption Δλ (calf thymus DNA): 9 nm; Absorption λmax free (calf thymus DNA): 535 nm; εfree (calf thymus DNA): 51,900 M-1 cm-1

Question: With [Ru].c1cnc2c(c1)ccc1cccnc12.c1cnc2c(c1)ccc1cccnc12.c1cnc2c(c1)ccc1cccnc12 [Ru(phen)3^2+, reference compound] as the compound, how does the “Absorption λmax bound” value (calf thymus DNA) read?
Answer: 445 nm

Question: What about the “Emission λmax bound” value (calf thymus DNA) of the same compound?
Answer: 593 nm

Question: And the “Absorption Δλ” value (calf thymus DNA)?
Answer: 2 nm

Question: And the “Emission Δλ” value (calf thymus DNA)?
Answer: 2 nm

Question: And the “Absorption λmax free” value (calf thymus DNA)?
Answer: 443 nm

Question: What about the “Emission λmax free” value (calf thymus DNA) of the same compound?
Answer: 591 nm

Question: And the εfree (calf thymus DNA)?
Answer: 20,000 M-1 cm-1

Question: And the “Emission Lifetime free” value (calf thymus DNA)?
Answer: 530 nanoseconds

Question: And the “Emission Lifetime bound … (1)” value (calf thymus DNA)?
Answer: 630 ± 70 nanoseconds

Question: What about the “Emission Lifetime bound … (2)” value (calf thymus DNA) of the same compound?
Answer: 2300 ± 620 nanoseconds

Question: With N=C1C(=N)c2ccccc2-c2ccccc21.N=C1C(=N)c2ccccc2-c2ccccc21.[Ru+2].c1ccc(-c2ccccn2)nc1 [Ru(phi)2 (bpy)^2+] as the compound, how does the “Emission λmax” value (calf thymus DNA) read?
Answer: b

Question: And the “Absorption λmax bound” value (calf thymus DNA)?
Answer: 582 nm

Question: What about the “Absorption Δλ” value (calf thymus DNA) of the same compound?
Answer: 10 nm

Question: What about the “Absorption λmax free” value (calf thymus DNA) of the same compound?
Answer: 572 nm

Question: What about the εfree (calf thymus DNA) of the same compound?
Answer: 75,300 M-1 cm-1

Question: For N=C1C(=N)c2ccccc2-c2ccccc21.N=C1C(=N)c2ccccc2-c2ccccc21.N=C1C(=N)c2ccccc2-c2ccccc21.[Ru+2] [Ru(phi)3^2+], which excited-state lifetime ([1]; flash photolysis) is on record?
Answer: ≤ 6 ns

Question: And the “emission 350 to 800 nm” value ([1]; pH 1-11, various solvents, 77K)?
Answer: No emission was observed

Reference: US5157032A, “Mixed ligand complexes and uses thereof as binding agents and probes to DNA” (The Trustees of Columbia University In The City of New York, priority 1990, dated 1992)
